Results deposited as PubChem BioAssay AID624099 (ICCB-Longwood, 2012)
Screen: 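Host factors E2 relies on to silence an HPV18 LCR reporter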 (primary screen). Cell system: human C33A cervical carcinoma cells (HPV-negative) stably expressing BPV1 E2 and an HPV18 LCR luciferase reporter. Reagent: siRNA pool against human genes, 40 nM. Timing: 72 h. Measured: 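HPV18 LCR reporter light per well, converted to plate-wise z-scores that exclude control wells, and averaged over triplicate plates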. Scale: mean z-score and z-score: higher = stronger reporter signal, weaker E2 silencing. Active means: 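Mean z ≥ 2 together with z ≥ 2 in two or more of the three replicates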.
This is a random part of about 21,000 deposited reagents. Over the whole deposit, 497 (2.4%) got an active call. 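Higher z means weaker E2 silencing; only reporter increases were scored, and knock-downs that hurt cell survival may mask genuine repressor factors.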 Unmarked entries are inactive. No sequences are given here.

{"gene": "RNASEH1 (ribonuclease H1)", "mean z-score": 0.06, "z-score, replicate A": 0.32, "z-score, replicate B": 0, "z-score, replicate C": -0.15}
{"gene": "CASC22 (cancer susceptibility 22)", "mean z-score": 0.81, "z-score, replicate A": 0.67, "z-score, replicate B": 0.55, "z-score, replicate C": 1.22}
{"gene": "BNIP3 (BCL2 interacting protein 3)", "mean z-score": 0.23, "z-score, replicate A": -0.08, "z-score, replicate B": 0.37, "z-score, replicate C": 0.39}
{"gene": "SNHG29 (small nucleolar RNA host gene 29)", "mean z-score": -0.68, "z-score, replicate A": -0.52, "z-score, replicate B": -0.47, "z-score, replicate C": -1.07}
{"gene": "IPPK (inositol-pentakisphosphate 2-kinase)", "mean z-score": 0.23, "z-score, replicate A": 0.26, "z-score, replicate B": -0.02, "z-score, replicate C": 0.45}
{"gene": "COL1A2 (collagen type I alpha 2 chain)", "mean z-score": -0.72, "z-score, replicate A": -0.82, "z-score, replicate B": -0.78, "z-score, replicate C": -0.54}
{"gene": "DVL3 (dishevelled segment polarity protein 3)", "mean z-score": -0.67, "z-score, replicate A": -0.44, "z-score, replicate B": -0.93, "z-score, replicate C": -0.63}
{"gene": "CUEDC2 (CUE domain containing 2)", "mean z-score": 0.32, "z-score, replicate A": 0.26, "z-score, replicate B": 0.2, "z-score, replicate C": 0.5}
{"gene": "PAK2 (p21 (RAC1) activated kinase 2)", "mean z-score": 0.05, "z-score, replicate A": 0.31, "z-score, replicate B": -0.17, "z-score, replicate C": 0.02}
{"gene": "ZDHHC2 (zDHHC palmitoyltransferase 2)", "mean z-score": 0.91, "z-score, replicate A": 1.26, "z-score, replicate B": 1.15, "z-score, replicate C": 0.31}
{"gene": "OR1S2 (olfactory receptor family 1 subfamily S member 2)", "mean z-score": 0.3, "z-score, replicate A": 0.38, "z-score, replicate B": 0.56, "z-score, replicate C": -0.05}

Next part (2 carried over from the part before).
{"gene": "ZDHHC2 (zDHHC palmitoyltransferase 2)", "mean z-score": 0.91, "z-score, replicate A": 1.26, "z-score, replicate B": 1.15, "z-score, replicate C": 0.31}
{"gene": "OR1S2 (olfactory receptor family 1 subfamily S member 2)", "mean z-score": 0.3, "z-score, replicate A": 0.38, "z-score, replicate B": 0.56, "z-score, replicate C": -0.05}
{"gene": "EVI5L (ecotropic viral integration site 5 like)", "mean z-score": 0.21, "z-score, replicate A": 0.29, "z-score, replicate B": 0.21, "z-score, replicate C": 0.12}
{"gene": "LOC400605 (retired record)", "mean z-score": 0.16, "z-score, replicate A": -0.17, "z-score, replicate B": 0.19, "z-score, replicate C": 0.45}
{"gene": "APLN (apelin)", "mean z-score": 1.26, "z-score, replicate A": 1.36, "z-score, replicate B": 1.33, "z-score, replicate C": 1.08}
{"gene": "TRMT13 (tRNA methyltransferase 13)", "mean z-score": 1.34, "z-score, replicate A": 1.46, "z-score, replicate B": 1.57, "z-score, replicate C": 0.98}
{"gene": "ARHGAP1 (Rho GTPase activating protein 1)", "mean z-score": -0.95, "z-score, replicate A": -0.86, "z-score, replicate B": -1.06, "z-score, replicate C": -0.93}
{"gene": "EIF2D (eukaryotic translation initiation factor 2D)", "mean z-score": 0.8, "z-score, replicate A": 0.64, "z-score, replicate B": 0.62, "z-score, replicate C": 1.15}
{"gene": "SCARB2 (scavenger receptor class B member 2)", "mean z-score": 1.16, "z-score, replicate A": 1.13, "z-score, replicate B": 1.43, "z-score, replicate C": 0.91}
{"gene": "TNFRSF17 (TNF receptor superfamily member 17)", "mean z-score": 1.65, "z-score, replicate A": 1.66, "z-score, replicate B": 1.5, "z-score, replicate C": 1.77}
{"gene": "EPHA1 (EPH receptor A1)", "mean z-score": 0.7, "z-score, replicate A": 1.32, "z-score, replicate B": 0.72, "z-score, replicate C": 0.06}
{"gene": "LHX6 (LIM homeobox 6)", "mean z-score": 1.04, "z-score, replicate A": 0.83, "z-score, replicate B": 0.93, "z-score, replicate C": 1.35}
